Compound potency records, mixed from different reports. Data source: NIAID ChemDB in PubChem.

Common to all: enzyme or target tests; agent: HIV-1; protein: Integrase; read-out: IC50

Lines come from different laboratories, so protocols vary. ICn is the concentration giving n% inhibition.

| SMILES | method | result |
|---|---|---|
| O=C(NC1CCCC1)C1C(=O)N(O)C(=O)c2ccccc21 | strand transfer | 2.86 µM |
| Nc1nc2c(ncn2C2CC(OP(=O)(O)OCC3OC(n4cnc5c(N)ncnc54)CC3O)C(COP(=O)(O)O)O2)c(=O)[nH]1 | strand transfer | 100 µM |
| CN(C)Cc1ccc2n1C(=O)c1ccccc1SC2c1ccc(F)cc1 | 3′ processing | >1000 µM |
| O=C(Nc1ccc(F)cc1)c1c(O)n(O)c(=O)c2cc([N+](=O)[O-])ccc12 | strand transfer | 0.01 µM |
| CC(C)(C)c1cc(/C=C2/SC(=S)N(NC(=S)C(=O)Nc3ccc(O)cc3)C2=O)c(O)c(C(C)(C)C)c1 | strand transfer | >100 µM |
| CN1CCC(C2Sc3ccccc3C(=O)N3CCCC23)CC1 | 3′ processing | >1000 µM |
| Nc1ncnc2c1ncn2[C@@H]1CO[C@H](COP(=O)(O)O[C@H]2C[C@H](n3cnc4c(N)ncnc43)O[C@@H]2COP(=O)(O)O)[C@H]1O | 3′ processing | >1000 µM |
| Nc1ccn(C2CC(O)C(COP(=O)(O)OC3CC(n4cnc5c(=O)[nH]c(N)nc54)OC3COP(=O)(O)O)O2)c(=O)n1 | 3′ processing | >100 µM |
| O=C(Nc1ccccc1)c1c(O)n(O)c(=O)c2cc([N+](=O)[O-])ccc12 | strand transfer | 0.03 µM |
| CN1C(=O)C(c2cc(Cl)c(O)c(Cl)c2)NC(=O)[C@@H]2NC(=O)C(c3cc(Cl)c(O)c(Cl)c3)NC(=O)[C@H](NC(=O)C(=O)c3cc(Cl)c(O)c(Cl)c3)Cc3c[nH]c4cc(ccc34)-c3cc2cc(c3O)Oc2ccc(cc2)CC1C(=O)NC(C(=O)O)c1ccc(O)cc1 | 3′ processing | 0.2 µM |
| O=C1/C(=C/c2ccc(O)c([N+](=O)[O-])c2)CN(Cc2ccccc2)C/C1=C\c1ccc(O)c([N+](=O)[O-])c1 | strand transfer | >100 µM |
| CC(=O)NCCSS(=O)(=O)CCCCS(=O)(=O)SCCNC(C)=O | 3′ processing / substrate cleavage | >200 µM |
| Nc1nc2c(ncn2C2CC(O)C(COP(=O)(O)OC3CC(n4cnc5c(N)ncnc54)OC3COP(=O)(O)O)O2)c(=O)[nH]1 | strand transfer | 9 µM |
| CCOC(=O)C1Sc2ccccc2C(=O)n2cccc21 | 3′ processing | >1000 µM |
| Oc1cc(O)c2c(c1)O[C@@H](c1ccc(O)c(O)c1)[C@H](O)C2 | 3′ processing | 432 µM |
| O=C(Cc1cccs1)Nc1ccc2c(c1)C(=O)N(O)C(=O)C2C(=O)NCc1ccc(F)cc1 | strand transfer | 0.27 µM |
| Nc1ncnc2c1ncn2[C@@H]1CO[C@H](COP(=O)(O)O)[C@H]1OP(=O)(O)OC[C@H]1O[C@@H](n2ccc(=O)[nH]c2=O)[C@H](O)[C@@H]1O | strand transfer | >1000 µM |
| O=C(Nc1ccc2c(c1)C(=O)N(O)C(=O)C2C(=O)NCc1ccc(F)cc1)c1ccccc1 | strand transfer | 0.21 µM |
| Nc1ccn(C2CC(OP(=O)(O)OCC3OC(n4cnc5c(N)ncnc54)CC3OP(=O)(O)OCC3OC(n4cnc5c(=O)[nH]c(N)nc54)CC3O)C(COP(=O)(O)O)O2)c(=O)n1 | 3′ processing | 57 µM |
| O=C1/C(=C/c2ccc([N+](=O)[O-])c(O)c2)CNC/C1=C\c1ccc([N+](=O)[O-])c(O)c1 | strand transfer | >100 µM |
| Nc1ncnc2c1ncn2[C@@H]1CO[C@H](COP(=O)(O)O)[C@H]1OP(=O)(O)OC[C@H]1O[C@@H](n2cnc3c(N)ncnc32)C[C@@H]1O | 3′ processing | >1000 µM |
| Cc1cn(C2CC(O)C(COP(=O)(O)OC3CC(n4cnc5c(=O)[nH]c(N)nc54)OC3COP(=O)(O)O)O2)c(=O)[nH]c1=O | strand transfer | 7.5 µM |
| O=C(Nc1ccc2c(c1)C(=O)N(O)C(=O)C2C(=O)NCc1ccc(F)cc1)c1ccccn1 | strand transfer | 0.77 µM |
| Nc1nc2c(ncn2C2CC(O)C(COP(=O)(O)OC3CC(n4cnc5c(=O)[nH]c(N)nc54)OC3COP(=O)(O)O)O2)c(=O)[nH]1 | strand transfer | 11.5 µM |
| CN1CCN(Cc2ccc3n2C(=O)c2ccccc2SC3c2ccccc2)CC1 | 3′ processing | >1000 µM |
| Cc1cn([C@H]2C[C@H](O)[C@@H](COP(=O)(O)O[C@H]3[C@H](n4cnc5c(N)ncnc54)CO[C@@H]3COP(=O)(O)O)O2)c(=O)nc1N | 3′ processing | 60 µM |
| O=C(NCc1ccc(F)cc1)C1C(=O)N(O)C(=O)c2cc(Br)ccc21 | strand transfer | 0.21 µM |
| Nc1ccn(C2CC(O)C(COP(=O)(O)OC3CC(n4ccc(N)nc4=O)OC3COP(=O)(O)O)O2)c(=O)n1 | 3′ processing | 15 µM |
| CC[C@H](C)[C@@H]1NC(=O)[C@H]2CSC(=N2)[C@@H](Cc2ccccc2)NC(=O)[C@@H]2CCCN2C(=O)[C@@H]2CCCN2C(=O)C(C(C)C)NC1=O | absorbance | 39 µM |
| CCN1C/C(=C\c2ccc(O)c(O)c2)C(=O)/C(=C/c2ccc(O)c(O)c2)C1 | 3′ processing | 0.5 µM |
| Nc1ccn(C2CC(OP(=O)(O)OCC3OC(n4cnc5c(=O)[nH]c(N)nc54)CC3O)C(COP(=O)(O)O)O2)c(=O)n1 | 3′ processing | 71 µM |
| Cc1ccc2c(c1)C(=O)c1ccccc1C2=O | disintegration | >40 µM |

Repeating the final 4 entries:

| SMILES | method | result |
|---|---|---|
| CC[C@H](C)[C@@H]1NC(=O)[C@H]2CSC(=N2)[C@@H](Cc2ccccc2)NC(=O)[C@@H]2CCCN2C(=O)[C@@H]2CCCN2C(=O)C(C(C)C)NC1=O | absorbance | 39 µM |
| CCN1C/C(=C\c2ccc(O)c(O)c2)C(=O)/C(=C/c2ccc(O)c(O)c2)C1 | 3′ processing | 0.5 µM |
| Nc1ccn(C2CC(OP(=O)(O)OCC3OC(n4cnc5c(=O)[nH]c(N)nc54)CC3O)C(COP(=O)(O)O)O2)c(=O)n1 | 3′ processing | 71 µM |
| Cc1ccc2c(c1)C(=O)c1ccccc1C2=O | disintegration | >40 µM |